Results reported in patent US20230218496A1, “IONIC LIQUID AS AN ANTIPERSPIRANT” (Novigo GmbH, priority 2020, published 2023).

Assay: Staining on white and black cotton textiles
Details: 7.5% by weight in water, 2 mL, 24 hours, before washing

CCCCCC[n+]1ccccc1.[Cl-] [1-hexylpyridinium chloride]
residue on black cotton textile: no residue at all | residue on white cotton textile: slight, light yellow residue
